# From paper PMC10633902, “Investigating the antimicrobial activity, cytotoxicity, and action mechanism of acylated and amidated derivatives of AurH1 antifungal peptide” (BMC Microbiology, 2023)
# No end group written: not given here.
# Tested on: C. albicans
# Assay: Ergosterol binding assay (MIC in presence and absence of ergosterol)
# Assay type: cell-based, Candida albicans
# Settings: concluded from unchanged MIC against C. albicans
# Protocol: An ergosterol binding assay was performed to measure the binding potency of peptides to fungal membrane sterols. For this purpose, the ergosterol was dissolved in DMSO and Tween-20, it was heated to increase the solubility of the formed emulsion and diluted in an SDB medium at a concentration of […] and incubated at 37 °C for 1 h. After that, MIC of the AurH1, Ac-AurH1, and AurH1-NH2 peptides was measured by the micro-dilution method in the presence and absence of ergosterol in different concentrations ([…]) against C. albicans.
row,Substance,binding to Ergosterol (in words)
1,"WFKIIKK [AurH1, WFKIIKK]",do not bind to Ergosterol
2,"H-WFKIIKK-NH2 [AurH1-NH2, WFKIIKK-NH2]",do not bind to Ergosterol
